Compound potency records, mixed from different reports. Data source: NIAID ChemDB in PubChem.

All rows: growth or infection tests; species: Mycobacterium tuberculosis

"inactive" is the filed call at that dose; no cut-off is given. ECn: concentration that inhibits the pathogen or its effect by n%. MIC bound: limit read from a one-dose screen. Neighbouring rows are from separate reports. Two numbers with a dash give a range or band. Percent inhibition refers to the dose given; in toxicity tests it is the harm to the cells. Blank or dashed fields: not listed here.

SMILES,setting,dose,strain,measure,method,value
O=c1[nH]nc(-c2ccccc2)c2nc3ccccc3n12,,,H37Rv,MIC bound,BACTEC,>12.5 µg/mL
Cc1cc(Cl)[nH]c2ccc3c(=O)c(C(=O)NN4C(=O)C(Cl)C4c4ccc(Cl)cc4)cnc3c12,,,H37Rv,MIC,,100 µg/mL
N/C(=N\N=C\c1nc2ccccc2o1)c1ccccn1,,,,MIC,,>16 µg/mL
CC1CN(c2c(F)cc3c(=O)c(C(=O)O)cn(C4CC4)c3c2F)CCN1,,,CSU11,MIC,,0.25 µg/mL
CC(C)(C)c1cnc(C(=O)/C=C/c2ccccc2Cl)cn1,,,H37Rv,MIC,absorbance,3.13 µg/mL
CCC(=O)N1C(=O)C(C)C23c4ccccc4C(=O)N2CCCN13,,,H37Rv,MIC,BACTEC,≥12.8 µg/mL
CCCCCCOc1ccccc1NC(=O)OCC[N+]1(CCCCCC)CCCCC1,,,My 331/88,MIC,,8 µM
S=c1[nH]c2ccccc2c(=S)n1-c1ccc(Br)cc1,,,331/81,MIC,,32 µM
C[C@H]1COc2c(N3CCN(C)CC3)c(F)cc3c(=O)c(C(=O)O)cn1c23,,,CSU26,MIC,,0.5 µg/mL
N/C(=N\N=C\c1nc2cc(Cl)ccc2o1)c1cnccn1,,,,MIC,,>16 µg/mL
O=c1oc2ccc(Cl)cc2c(=S)n1-c1cccc(F)c1,21 d,,My 331/88,MIC,,4 µM
O=C(O)c1ccccc1-c1c2ccc(=O)c(Cl)c-2oc2c(Cl)c(O)ccc12,,12.5 µg/mL,H37Rv,inhibition,BACTEC,-7%
Cc1cc(Cl)[nH]c2ccc3c(=O)c(C(=O)NN4C(=O)C(Cl)C4c4ccccc4O)cnc3c12,,,H37Rv,MIC,,500 µg/mL
C=C(OCC)c1nc(Cl)c2ncn(Cc3ccccc3)c2n1,,,H37Rv,EC50,BACTEC,>12.5 µg/mL
CO[C@H]1/C=C/O[C@@]2(C)Oc3c(C)c(O)c4c(O)c(c(/C=N/N5CCN(C)CC5)c(O)c4c3C2=O)NC(=O)/C(C)=C\C=C\[C@H](C)[C@H](O)[C@@H](C)[C@@H](O)[C@@H](C)[C@H](OC(C)=O)[C@@H]1C,,,Harlingen (Ser531Trp),MIC,,>32 µg/mL
CC(C)c1ccc(-n2c(=O)sn(-c3ccc(SC(F)(F)F)cc3)c2=O)cc1,,,H37Rv,MIC,broth dilution,12.5 µg/mL
CCCCCCCCCCCc1c(O)c(=O)c2c(oc3c(=O)c(CCCCCCCCCCC)c(O)c(=O)c3n2-c2ccc(N(C)C)cc2)c1=O,,,H37Rv,MIC bound,BACTEC,>12.8 µg/mL
CC(=O)Cn1cc(Cn2c3ccccc3c3ccccc32)nn1,,,H37Rv,MIC,agar,12.5 µg/mL
Cc1ccc(-n2c(SC(C)C(=O)Nc3c(C)n(C)n(-c4ccccc4)c3=O)nnc2-c2ccco2)cc1,,6.25 µg/mL,H37Rv,inhibition,resazurin,inactive
C[C@@H]1CN(c2c(F)c(N)c3c(=O)c(C(=O)O)cn(C4CC4)c3c2F)C[C@H](C)N1,,,Erdman,MIC,,0.125 µg/mL
CCCCCOc1ccccc1NC(=O)OCC[N+]1(CC)CCCCC1,,,My 331/88,MIC,,500 µM
Cc1c(NC(=O)CSc2nnc(-c3ccco3)n2-c2ccc(Br)cc2)c(=O)n(-c2ccccc2)n1C,,,H37Rv,MIC,resazurin,>6.25 µg/mL
O=C1OCC(O)C(O)C(O)C(O)C1O,,12.5 µg/mL,H37Rv,inhibition,BACTEC,12%
CC(C)(C)c1cnc(C(=O)/C=C/c2ccc(Br)cc2)cn1,,,H37Rv,MIC,absorbance,>50 µg/mL
CCOC(=O)c1nc(C)oc1N,,12.5 µg/mL,H37Rv,inhibition,BACTEC,8%
CCOC(=O)c1cccc(-n2sc(=O)n(C3Cc4ccccc4C3)c2=O)c1,,,H37Rv,MIC,broth dilution,6.25 µg/mL
CCCCCc1cnc(C(=O)/C=C/c2ccc(Br)cc2)cn1,,,H37Rv,MIC,absorbance,>50 µg/mL
Cc1cccc(C)c1NCC(=O)NN,,,H37Rv,MIC,BACTEC,≥12.5 µg/mL
C=CC[N+]1(CCOC(=O)Nc2ccccc2OCCCCCC)CCCCC1,,,My 331/88,MIC,,32 µM
O=c1sn(-c2ccc([N+](=O)[O-])cc2Cl)c(=O)n1CC1CC1,,,H37Rv,MIC,broth dilution,25 µg/mL
CC[C@@H](CO)NCCN[C@@H](CC)CO,,,H37Rv (ATCC 27294),MIC,,3.12 µg/mL
CCCC(=O)OC[n+]1ccc2c(C)c3[nH]c4ccc(OC)cc4c3c(C)c2c1,,,H37Rv,MIC bound,resazurin,<6.25 µg/mL
Clc1nc2c(-c3ccccc3)ncnc2n1Cc1ccccc1,,,H37Rv,EC50,BACTEC,<12.5 µg/mL
CC(C)c1cnc(C(=O)/C=C/c2ccccc2Br)cn1,,,H37Rv,MIC,absorbance,12.5 µg/mL
c1ccc(Cn2cnc3cncnc32)cc1,,,H37Rv,EC50,BACTEC,>12.5 µg/mL
COC(=O)C12COC(=O)C1COC2=O,,,H37Rv,MIC bound,BACTEC,>12.5 µg/mL
Cc1c(NC(=O)CSc2nnc(-c3ccco3)n2C2CCCCC2)c(=O)n(-c2ccccc2)n1C,,6.25 µg/mL,H37Rv,inhibition,resazurin,inactive
O=[N+]([O-])c1ccccc1C=NC[C@@H](O)[C@@H](O)[C@H](O)[C@H](O)CN=Cc1ccccc1[N+](=O)[O-],,,H37Rv (ATCC 27294),MIC,,12.5 µg/mL
CCCCCCOc1ccccc1NC(=O)OCC[N+]1(CC)CCCCC1,,,My 331/88,MIC,,62.5 µM
COC1=C(NC(C)=O)C(=O)c2nc(-c3nc(C(=O)O)c(C)c(-c4ccc(OC)c(OC)c4O)c3N)ccc2C1=O,,,H37Rv,MIC,BACTEC,≥12.5 µg/mL
C=CCc1ccc(OC(C)=O)c(OC(C)=O)c1,,,H37Rv,MIC,agar / visual reading,129.5 µM
O=C(CCCC(=O)Nc1ccc2[nH]c3ccccc3c(=O)c2c1)Nc1ccc2[nH]c3ccccc3c(=O)c2c1,,12.5 µg/mL,H37Rv,inhibition,BACTEC,-43%
O[C@@H]([C@H](O)[C@H](O)CN=Cc1ccccc1Cl)[C@H](O)CN=Cc1ccccc1Cl,,,H37Rv (ATCC 27294),MIC,,>100 µg/mL
O=C(CCC(=O)c1ccccc1)NC[C@H]1CN(c2ccc(-n3cncn3)c(F)c2)C(=O)O1,,,10 clinical isolates resistant,MIC,,1–2 µg/mL
NC[C@@H](O)[C@@H](O)[C@H](O)[C@H](O)CN,,,H37Rv (ATCC 27294),MIC,,>100 µg/mL
C#CCn1c2ccccc2c2ccccc21,,,H37Rv,MIC,agar,12.5 µg/mL
O=c1oc2ccc(Br)cc2c(=S)n1-c1cccc(Cl)c1,21 d,,My 331/88,MIC,,1 µM
C(#Cc1ncnc2c1ncn2Cc1ccccc1)c1ccccc1,,,H37Rv,EC50,BACTEC,>12.5 µg/mL
N/C(=N\N=C\c1ccncc1)c1ccccn1,,,,MIC,,>16 µg/mL
Cc1c(NC(=O)CSc2nnc(-c3ccco3)n2-c2ccccc2)c(=O)n(-c2ccccc2)n1C,,,H37Rv,MIC,resazurin,>6.25 µg/mL
O=C(Nc1ccccc1SC(/C=C/NNC1=NC(c2ccccc2)C(c2ccccc2)=NN1)c1ccccc1)c1ccc(Cl)cc1Cl,,12.5 µg/mL,H37Rv,inhibition,BACTEC,0%
N/C(=N\N=C\c1nc2ccc([N+](=O)[O-])cc2o1)c1cnccn1,,,,MIC,,>16 µg/mL
CCCCCCCCCCCCCCCC1=C(O)c2ncccc2C(=O)C1=O,,,H37Rv,MIC bound,resazurin,>6.25 µg/mL
Cc1ccc(-n2cc(Cn3c4ccccc4c4ccccc43)nn2)cc1,,,H37Rv,MIC,agar,25 µg/mL
N/C(=N\N=C\c1ccncc1)c1cnccn1,,,,MIC,,>16 µg/mL
Nc1ncnc2c1ncn2C1OC(C(=O)NCC(=O)O)C(O)C1O,,,H37Rv,MIC bound,BACTEC,>12.5 µg/mL
CC(C)(C)c1cnc(C(=O)/C=C/c2ccccc2F)cn1,,,H37Rv,MIC,absorbance,6.25 µg/mL
S=c1oc2c(Cl)cc(Cl)cc2c(=S)n1-c1ccc(Cl)cc1,,,331/81,MIC,,8 µM
Clc1ccc(-n2cc(Cn3c4ccccc4c4ccccc43)nn2)c(Cl)c1,,,H37Rv,MIC,agar,25 µg/mL
N/C(=N\N=C\c1nc2ccccc2o1)c1cnccn1,,,,MIC,,>16 µg/mL
C[C@@H]1O[C@@H](O[C@@H]2[C@@H](O)[C@H](OCCc3ccc(O)c(O)c3)O[C@H](CO)[C@H]2OC(=O)/C=C/c2ccc(O)c(O)c2)[C@H](O)[C@H](O)[C@H]1O,,,H37Rv,MIC bound,BACTEC,>12.5 µg/mL
C=CCc1ccc(O)c(O)c1,,,H37Rv,MIC,agar / visual reading,184 µM
O=C(/C=C/c1ccc(Br)cc1)c1cnccn1,,,H37Rv,MIC,absorbance,12.5 µg/mL
Cn1c(=O)sn(-c2ccccc2)c1=O,,,H37Rv,MIC,broth dilution,6.25 µg/mL
O=C(SCC1CS1)c1ccco1,,,H37Rv,MIC,,0.8 µg/mL
O=C(/C=C/c1ccc(Cl)cc1)c1cnccn1,,,H37Rv,MIC,absorbance,50 µg/mL
Fc1ccc(-n2cc(Cn3c4ccccc4c4ccccc43)nn2)cc1,,,H37Rv,MIC,agar,25 µg/mL
C=Cc1nc2cncnc2n1Cc1ccccc1,,,H37Rv,EC50,BACTEC,>12.5 µg/mL
N/C(=N\N=C\c1ccccn1)c1ccccn1,,,,MIC,,>16 µg/mL
O=C(CCC(=O)c1ccc2ccccc2c1)NC[C@H]1CN(c2ccc(N3CCOCC3)c(F)c2)C(=O)O1,,,ATCC 27294,MIC,,5 µg/mL
Cc1c(NC(=O)CSc2nnc(-c3ccco3)n2-c2ccc(F)cc2)c(=O)n(-c2ccccc2)n1C,,,H37Rv,MIC,resazurin,>6.25 µg/mL
O=C1c2ccccc2C(=O)c2sc(Nc3ccccc3Cl)nc21,,,H37Rv,MIC,BACTEC,0.4 µg/mL
COc1cccc(Cn2cc(Cn3c4ccccc4c4ccccc43)nn2)c1,,,H37Rv,MIC,agar,12.5 µg/mL
Cc1ccc2oc(=O)n(-c3cccc(Cl)c3)c(=S)c2c1,14 d,,My 331/88,MIC,,0.5 µM
CCCCc1cnc(C(=O)/C=C/c2ccc(Br)cc2)cn1,,,H37Rv,MIC,absorbance,>50 µg/mL
Fc1ccc(-n2cc(Cn3c4ccccc4c4ccccc43)nn2)c(F)c1,,,H37Rv,MIC,agar,50 µg/mL
CSc1ccc(C(=O)CCC(=O)NC[C@H]2CN(c3ccc(N4CCCC4)c(F)c3)C(=O)O2)cc1,,,10 clinical isolates sensitive,MIC,,>16 µg/mL
Brc1ccc(-n2cc(Cn3c4ccccc4c4ccccc43)nn2)cc1,,,H37Rv,MIC,agar,50 µg/mL
CC1(C)CCC[C@@]2(C)C1CC[C@@]1(C)[C@@H]3CC=C4C(=O)OCC4[C@@]3(C)[C@H](O)C[C@@H]12,,,H37Rv (ATCC 27294),EC50,BACTEC,>12.5 µg/mL
O=C1C=Cc2ccccc2/C1=C/c1nc(-c2ccccc2)oc1O,,12.5 µg/mL,H37Rv,inhibition,BACTEC,-7%
Cc1cc(Cl)[nH]c2ccc3c(=O)c(C(=O)NN=Cc4cc([N+](=O)[O-])ccc4O)cnc3c12,,,H37Rv,MIC,,500 µg/mL
NC(=O)c1ccc(=S)[nH]c1,,,H37Rv,MIC bound,BACTEC,>12.5 µg/mL
CCCc1cnc(C(=O)/C=C/c2ccc(Br)cc2)cn1,,,H37Rv,MIC,absorbance,50 µg/mL
COC1/C=C/OC2(C)Oc3c(C)c(O)c4c(c3C2=O)C(=O)C([N+](=O)[O-])=C(NC(=O)/C(C)=C\C=C\C(C)C(O)C(C)C(O)C(C)C(OC(C)=O)C1C)C4=O,,6.25 µg/mL,H37Rv,inhibition,resazurin,101%
Cc1c(NC(=O)CSc2nnc(-c3ccco3)n2C)c(=O)n(-c2ccccc2)n1C,,6.25 µg/mL,H37Rv,inhibition,resazurin,inactive
S=c1[nH]c2ccccc2c(=S)n1-c1ccc(Cl)cc1,,,331/81,MIC,,32 µM
CC(=O)Nc1ccc(/C=N/NC(N)=S)cc1,,,Aoyama B,MIC,,0.1 µg/mL
Cc1cccc(Cl)c1-n1sc(=O)n(CC2CC2)c1=O,,,H37Rv,MIC,broth dilution,12.5 µg/mL
C=C(CC[C@@H](C(=O)O)[C@H]1CC[C@@]2(C)C3=C(CC[C@]12C)[C@@]1(C)CC[C@H](O)C(C)(C)[C@@H]1CC3)C(C)C,,,H37Rv,MIC,BACTEC,≥12.8 µg/mL
S=c1[nH]c2ccccc2c(=S)n1-c1ccccc1,,,331/81,MIC,,64 µM

Again, the opening 8 rows:

O=c1[nH]nc(-c2ccccc2)c2nc3ccccc3n12 ; strain: H37Rv ; measure: MIC bound ; method: BACTEC ; value: >12.5 µg/mL
Cc1cc(Cl)[nH]c2ccc3c(=O)c(C(=O)NN4C(=O)C(Cl)C4c4ccc(Cl)cc4)cnc3c12 ; strain: H37Rv ; measure: MIC ; value: 100 µg/mL
N/C(=N\N=C\c1nc2ccccc2o1)c1ccccn1 ; measure: MIC ; value: >16 µg/mL
CC1CN(c2c(F)cc3c(=O)c(C(=O)O)cn(C4CC4)c3c2F)CCN1 ; strain: CSU11 ; measure: MIC ; value: 0.25 µg/mL
CC(C)(C)c1cnc(C(=O)/C=C/c2ccccc2Cl)cn1 ; strain: H37Rv ; measure: MIC ; method: absorbance ; value: 3.13 µg/mL
CCC(=O)N1C(=O)C(C)C23c4ccccc4C(=O)N2CCCN13 ; strain: H37Rv ; measure: MIC ; method: BACTEC ; value: ≥12.8 µg/mL
CCCCCCOc1ccccc1NC(=O)OCC[N+]1(CCCCCC)CCCCC1 ; strain: My 331/88 ; measure: MIC ; value: 8 µM
S=c1[nH]c2ccccc2c(=S)n1-c1ccc(Br)cc1 ; strain: 331/81 ; measure: MIC ; value: 32 µM